Experimental data reported in publication PMC10107996, “Release of hepatitis B virions is positively regulated by glucose‐regulated protein 78 through direct interaction with preS1” (Journal of Medical Virology, 2022).

Target: T1, purified recombinant GRP78 protein (human)
T1 construct: source: recombinant, purified
Assay: MST; purified truncated GST-preS1 proteins with GRP78
Details: both partners purified

B1: GST-preS1-p1 ([…]) (domain or fragment)
chain: not shown
modifications: GST carrier omitted. Genotype not printed: a 119-residue preS1 and the DPAFGANS peptide exclude the genotype D candidate (108-residue preS1); genotype C assumed. Check residues come from the printed …
In the case of B1, the Kd is reported as 899 nM.
